Assay results from patent publication US20240101647A1.

Biological target: SARS-CoV-2 BA.1/Omicron RBD-His (UniProt P0DTC2)
Experiment: BLI
Conditions: Fc fusion

Substance: VHH72-S56A_Fc
- Kd: 180 nM
